Measured values: patent publication US12643899B2, “Antiviral agents, uses thereof and methods for their preparation” (The University of British Columbia, priority 2020, dated 2026)
Which two values form the index is not stated here.

Tested on: ZIKV
Assay: Secreted NS1 (sNS1) ELISA, ZIKV-infected A549 cells
Format: cell-based, Zika virus
Conditions: therapeutic index from the ELISA (sNS1) IC50, A549 cells
Experimental: Error bars represent SD among 2 biological replicates.
Cultured A549 cells were treated with various concentrations of CA or PF-429242 for 24 h before being washed with PBS and inoculated with ZIKV (ZIKV strain VR 1843, Puerto Rico, 2015; ATCC) at MOI 1.0 for 1 h. Following the removal of the inoculum, cells were incubated in fresh media for 2 d before the supernatant was collected, clarified, and secreted NS1 protein abundance was measured by an ELISA kit (BioFront Technologies) according to the manufacturer's instructions. Curve fitting was performed in Igor Pro (WaveMetrics) using a hyperbolic fit algorithm (FIG. 4; upper and middle plots) and IC50 and TI values obtained. IC50 and TI values were also obtained for CA via plaque assay (PFU; FIG. 4, lower plot). FIG. 4 (upper plot) is an ED50 curve for the PF inhibitor based on the detection of secreted Non-Structural protein 1 (sNS1), secreted viral biomarker. sNS1 was detected using an Elisa test (commercially available). FIG. 4 (middle plot) is an ED50 curve for CA based on the detection of secreted Non-Structural protein 1 (sNS1), secreted viral biomarker. sNS1 was detected using an Elisa test (commercially available).

COc1c2n(c3ccccc13)[C@]1(O)C(=O)N(C)C(=O)[C@]1(O)c1c-2[nH]c2ccc(Cl)cc12 [CA, (11S,15R)-7-chloro-11,15-dihydroxy-23-methoxy-13-methyl-3,13,16-triazahexacyclo[14.7.0.0^2,10.0^4,9.0^11,15.0^17,22]tricosa-1(23),2(10),4(9),5,7,17,19,21-octaene-12,14-dione]
TI: 675

CCN(CC)Cc1ccc(C(=O)N(CCc2ccccc2OC)[C@@H]2CCNC2)cc1 [PF, PF-429242, reference compound]
TI: 5.5
